# Source: publication PMC12810918, “Arginine metabolism has a pivotal function for the encystation of Giardia duodenalis” (PLOS Pathogens, 2026)
# Tested on: N=C(N)NCCC[C@H](N)C(=O)O
# Test: purified protein
# Conditions: 40 mM Hepes pH 7.0, 0-20 mM arginine
Substance,Km,kcat
"ADIAI (recombinant ADI, assemblage AI, isolate WB C6) (Giardia lamblia ATCC 50803; I449V)",300 ± 40 µM,3.86 ± 0.36 s⁻¹
"ADIAI (recombinant ADI, assemblage AI, isolate WB C6) (Giardia lamblia ATCC 50803; I449V/P494L)",550 ± 90 µM,3.13 ± 0.18 s⁻¹
"ADIAI (recombinant ADI, assemblage AI, isolate WB C6) (Giardia lamblia ATCC 50803; I449V/S167G)",560 ± 120 µM,4.14 ± 0.48 s⁻¹
"ADIAI (recombinant ADI, assemblage AI, isolate WB C6) (Giardia lamblia ATCC 50803; P494L)",470 ± 80 µM,3.51 ± 0.40 s⁻¹
"ADIAI (recombinant ADI, assemblage AI, isolate WB C6) (Giardia lamblia ATCC 50803; P494L/S167G)",1490 ± 300 µM,2.24 ± 0.06 s⁻¹
"ADIAI (recombinant ADI, assemblage AI, isolate WB C6) (Giardia lamblia ATCC 50803; S167G)",500 ± 50 µM,
